# From EP2436774A2, “Therapeutic monoclonal antibodies that neutralize botulinum neurotoxins” (dated 2012)
# Molecular target: Hall (A1) toxin (Clostridium botulinum (Hall strain)) (UniProt P0DPI1)
# Assay: cell-based or functional assay
substance,measurement,value
"C25 IgG (chimeric, murine V-domains and human C-domains) (from UniProt P01857 1-330) (antibody)","Observed Toxin Neutralization (mouse, toxin and 50 ug Ab premixed, i.p.)",< 20 LD50s
